In patent US20050282254:

Target: recombinant protein of two full size thioredoxine domains with modified protease recognition site between them [thioredoxin: P0AA25]

B1: Pro39 (C-terminal cysteine protease domain of Semliki Forest virus non-structural protein nsP2) (protein)
chain: KVIEGPAAPVDAFQNKANVCWAKSLVPVLDTAGIRLTAEEWSTIITAFKEDRAYSPVVALNEICTKYYGVDLDSGLFSAPKVSLYYENNHWDNRPGGRMYGFNAATAARLEARHTFLKGQWHTGKQAVIAERKIQPLSVLDNVIPINRRLPHALVAEYKTVKGSRVEWLVNKVRGYHVLLVSEYNLALPRRRVTWLSPLNVTGADRCYDLSLGLPADAGRFDLVFVNIHTEFRIHHYQQCVDHAMKLQMLGGDALRLLKPGGSLLMRAYGYADKISEAVVSSLSRKFSSARVLRPDCVTSNTEVFLLFSNFDNGKRPSTLHQMNTKLSAVYAGEAMHTAGC
cleavage efficiency, Pro39, SDS-PAGE: the cleavage efficiency was significantly enhanced as compared to cleavage of recognition sites placed between structured and non-structured protein sequences
